This passage reports EC50, Ratio IC50 and IC50 results from ChEMBL document CHEMBL2396622, “Interfacial cavity filling to optimize CD4-mimetic miniprotein interactions with HIV-1 surface glycoprotein” (J Med Chem, 2013).

Structures are written as SMILES.

The subject of assay [1] is Human immunodeficiency virus 1. The assay is described as follows: Antiviral activity against subtype C R5 tropic HIV1 VI1358 infected in human GHOST cells. Particulars: Human immunodeficiency virus 1, VI1358, GHOST. In kind it is functional, organism-based.
The test system of assay [2] is Human immunodeficiency virus 1. As to the kind of experiment: Ratio of IC50 for HIV1 CN54 gp120 to IC50 for HIV1 SF162 gp120.
The test system of assay [3] is Human immunodeficiency virus 1. As to the kind of experiment: Antiviral activity against subtype C R5 tropic HIV1 VI829 infected in human GHOST cells. In kind it is functional, organism-based. The settings on record: Human immunodeficiency virus 1, VI829, GHOST.
The test system of assay [4] is Human immunodeficiency virus 1. As to the kind of experiment: Antiviral activity against subtype B R5 tropic HIV1 Bal infected in human TZM-bl cells after 48 hrs by luciferase repoter gene assay. It is filed as functional, organism-based. Particulars: Human immunodeficiency virus 1, Bal.
Assay [5] relates to Human immunodeficiency virus 1. The assay is described as follows: Antiviral activity against subtype B R5 tropic HIV1 pREJO.c/2864 infected in human TZM-bl cells after 48 hrs by luciferase repoter gene assay. In kind it is functional, organism-based. The settings on record: Human immunodeficiency virus 1, pREJO.c/2864, TZM-bl.
For assay [6], the target named is Envelope glycoprotein gp160 (Human immunodeficiency virus type 1 group M subtype B (isolate SF162)(HIV-1), UniProt P19550). The assay is described as follows: Displacement of soluble CD4 from HIV1 SF162 gp120 after overnight incubation by ELISA. Also noted: species or system Human immunodeficiency virus type 1 (SF162 ISOLATE). A general note: In an ELISA, binding on a coated surface is turned into a signal by an enzyme label.

Assay [7] relates to Human immunodeficiency virus 1. As to the kind of experiment: Antiviral activity against subtype C R5 tropic HIV1 VI1358 infected in human TZM-bl cells after 48 hrs by luciferase repoter gene assay. Particulars: Human immunodeficiency virus 1, VI1358, TZM-bl. In kind it is functional, organism-based.
Assay [8] concerns Human immunodeficiency virus 1. As to the kind of experiment: Ratio of IC50 for HIV1 SF162 gp120 to IC50 for HIV1 CN54 gp120.
Assay [9] deals with Human immunodeficiency virus 1. As to the kind of experiment: Antiviral activity against subtype B X4 tropic HIV1 3B infected in human GHOST cells. In kind it is functional, organism-based. Particulars: Human immunodeficiency virus 1, 3B.
For assay [10], the system named is Human immunodeficiency virus 1. As to the kind of experiment: Antiviral activity against subtype C R5 tropic HIV1 p246F10 infected in human TZM-bl cells after 48 hrs by luciferase repoter gene assay. It is filed as functional, organism-based. The settings on record: Human immunodeficiency virus 1, p246F10, TZM-bl.
Assay [11] has as its system Human immunodeficiency virus 1. The assay is described as follows: Antiviral activity against subtype B X4 tropic HIV1 3B infected in human TZM-bl cells after 48 hrs by luciferase repoter gene assay. It is filed as functional, organism-based. Particulars: Human immunodeficiency virus 1, 3B.
The target of assay [12] is Envelope glycoprotein gp160 (Human immunodeficiency virus type 1 group M subtype B (isolate SF162)(HIV-1)) (UniProt P19550). As to the kind of experiment: Displacement of soluble CD4 from HIV1 SF162 gp120 after overnight incubation by ELISA relative to M48. The settings on record: Human immunodeficiency virus type 1 (SF162 ISOLATE).
For assay [13], the system named is Human immunodeficiency virus 1. As to the kind of experiment: Displacement of soluble CD4 from HIV1 CN54 gp120 after overnight incubation by ELISA relative to M48.
Assay [14] in a line: Displacement of soluble CD4 from HIV1 CN54 gp120 after overnight incubation by ELISA. Also noted: species or system Human immunodeficiency virus 1.
The subject of assay [15] is Human immunodeficiency virus 1. As to the kind of experiment: Antiviral activity against subtype B R5 tropic HIV1 Bal infected in human GHOST cells. In kind it is functional, organism-based. Particulars: Human immunodeficiency virus 1, Bal.
In assay [16] the test system is Human immunodeficiency virus 1. The assay is described as follows: Antiviral activity against subtype C R5 tropic HIV1 VI829 infected in human TZM-bl cells after 48 hrs by luciferase repoter gene assay. In kind it is functional, organism-based. The settings on record: Human immunodeficiency virus 1, VI829, TZM-bl. Put shortly: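 TZM-bl cells (10⁴/well) pre-incubated 30 min at 37 °C, 5% CO₂ with serial compound dilutions, then infected with 200 TCID₅₀ virus; luciferase read after 48 h. Triplicate wells, single experiment; % inhibition versus untreated control plotted against concentration, EC₅₀ by non-linear regression.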

Consider `CC(C)C[C@@H]1NC(=O)CNC(=O)[C@H](CC(C)C)NC(=O)[C@H](CO)NC(=O)[C@H](CCCCN)NC(=O)[C@@H]2CSSC[C@@H](C(=O)N[C@H](C(N)=O)C(C)C)NC(=O)[C@H](C)NC(=O)[C@@H]3CSSC[C@H](NC(=O)[C@H](Cc4ccccc4)NC(=O)[C@H](Cc4cnc[nH]4)NC(=O)[C@H](CC(C)C)NC(=O)[C@H](CC(N)=O)NC(=O)CCSSC[C@H](NC(=O)[C@H](CCCNC(=N)N)NC(=O)CNC(=O)[C@H](CC(C)C)NC1=O)C(=O)N[C@@H](C)C(=O)N1CCC[C@@H]1C(=O)N[C@@H]([C@@H](C)O)C(=O)N[C@@H](Cc1ccc(OCCC4CCCC4)cc1)C(=O)N3)C(=O)N[C@@H](CCC(N)=O)C(=O)N[C@@H](CC(C)C)C(=O)N[C@@H](CCCNC(=N)N)C(=O)N2`, for which the EC50 – broadly, the concentration needed to bring the measured effect to its halfway point – in [1] was determined as 42 nM; in [3], 98 nM; in assay [4] it was 3 nM; in assay [5], 68 nM; in [7], 826 nM; in assay [9], 0.5 nM. The EC50 in assay [10] is 898 nM; in [11], 0.3 nM; in assay [15], 4 nM; in assay [16], 103 nM. Besides, the Ratio IC50 in [2] was 3; in assay [8], 0.7; in assay [12], 0.9; in [13], 0.59. Further, the IC50 (in general, the concentration at which inhibition is half-maximal) in assay [6] was 0.5 nM; in [14] it was 1.7 nM.
